{"source": "paper PMC6784148", "about": "(Toxins, 2019)", "system": "intestinal porcine epithelial cell line (IPEC-J2)", "test": "Cell viability of IPEC-J2 after 48 h toxin treatment (sulforhodamine B assay)"}
{"compound": "CCC(C)C1NC(=O)/C(=C(/C)O)C1=O", "note": "(stereo not drawn)", "values": [{"measurement": "Cytotoxic effect on IPEC-J2 (in words)", "setting": "48 h, SRB assay", "value": "slight decrease in viability"}, {"measurement": "Viability after applying higher concentrations", "setting": "IPEC-J2, 48 h", "value": "did not further decrease below 50%"}, {"measurement": "Cell viability", "setting": "IPEC-J2, 48 h, at 20 µM", "value": 76.2, "unit": "%"}, {"measurement": "Viability despite increased concentrations", "setting": "IPEC-J2, 48 h, concentrations above 20 µM up to 150 µM", "value": "around 50%"}, {"measurement": "Relative IC50 value", "setting": "IPEC-J2, 48 h, µM value expressed in µg/kg", "value": 4761, "unit": "µg/kg"}, {"measurement": "IC50", "setting": "read-out: Relative IC50 value, IPEC-J2, 48 h incubation, SRB assay, concentration reducing viability to 50% between top and bottom plateau", "value": 20.9, "unit": "µM"}]}
